PubChem BioAssay AID1259414, Drosophila RNAi Screening Center, 2018
In all, the deposit lists about 24,000 reagents; below is an unselected part of those with a known target gene and a result. Of all reagents, about 1,210 (5%) are marked active. 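Inactive calls also include excluded dsRNAs with several or no targets, genes unexpressed in JW18, and well A1, regardless of score.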 A plus sign joins genes that one reagent is predicted to hit.

- Purpose: 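Host factors increasing or decreasing Wolbachia levels in cultured fly cells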 (primary screen)
- System: Drosophila JW18 cells infected with Wolbachia
- Reagent: long dsRNA against Drosophila genes, 0.25 µg dsRNA per well of a 384-well plate
- Timing: 5 days
- Conditions: cells persistently infected with Wolbachia before knock-down; no added drug
- Detection: 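Automated imaging of bacterial rRNA staining divided by host cell count, reported as plate-normalised robust z-score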
- Direction: Wolbachia per cell robust z: higher = more Wolbachia per host cell than the plate typical
- Active means: 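Hit when robust z is 1.5 or more, or -1.5 or less, in at least two of three replicates; excludes dsRNAs with several or no targets, genes not expressed in JW18 and well A1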

The opening 2 entries, ahead of the listing:
target gene,amplicon,"Wolbachia per cell robust z, rep 1","Wolbachia per cell robust z, rep 2","Wolbachia per cell robust z, rep 3",call
CG3071,DRSC18526,-0.53,-7.39,0.346,inactive
CG3071,DRSC26289,-0.596,-0.164,-0.207,inactive

Results, from the start:
target gene,amplicon,"Wolbachia per cell robust z, rep 1","Wolbachia per cell robust z, rep 2","Wolbachia per cell robust z, rep 3",call
CG3071,DRSC18526,-0.53,-7.39,0.346,inactive
CG3071,DRSC26289,-0.596,-0.164,-0.207,inactive
mRpL45 (mitochondrial ribosomal protein L45),DRSC16146,0.706,-1.98,-0.0567,inactive
CG34215,DRSC38697,0.282,-2.15,-0.0611,inactive
CG32817 + CR18166 + CG3176,DRSC18288,-0.802,-0.593,-0.261,inactive
Pnn (Pinin),DRSC16415,-0.654,0.306,-0.329,inactive
CR34285 (pseudo),DRSC38627,-0.575,-0.82,-2.7,inactive
CG14085,DRSC10089,-0.616,0.37,-1.38,inactive
Prosalpha4 (Proteasome alpha4 subunit),DRSC20271,2.03,1.71,1.23,active
Prosalpha4 (Proteasome alpha4 subunit),DRSC25287,0.873,1.3,0.864,inactive
RpS17 (Ribosomal protein S17),DRSC11271,1.61,0.84,0.559,inactive
RpS17 (Ribosomal protein S17),DRSC29519,2.06,1.98,-6.09,active
CG16824,DRSC02525,0.219,0.922,-0.31,inactive
CG16824,DRSC41493,0.273,-0.358,-0.415,inactive
CG32191,DRSC10522,0.755,1.06,0.207,inactive
Jon99Ci (Jonah 99Ci),DRSC16860,0.133,0.15,0.0586,inactive
Jon99Ci (Jonah 99Ci),DRSC28041,1.18,-0.999,-1.45,inactive
Mtpbeta (Mitochondrial trifunctional protein beta subunit),DRSC04663,-0.0851,-1.39,-5.13,inactive
Strip (Striatin interacting protein),DRSC08194,1.67,1.32,1.47,inactive
Strip (Striatin interacting protein),DRSC29471,2.93,2.17,2.16,active
Spn85F + CG5359,DRSC26211,-0.377,-5.4,-0.517,inactive
CG3097,DRSC18275,-0.348,-0.946,-4.71,inactive
CG1958,DRSC18196,-6.59,-0.502,-1.4,inactive
CG1958,DRSC25599,-2.51,-0.708,-1.27,inactive
Mfap1 (Microfibril-associated protein 1),DRSC08154,0.707,0.752,2.1,inactive
Mfap1 (Microfibril-associated protein 1),DRSC29205,0.554,0.359,-0.625,inactive
CG8757,DRSC11039,-2.07,-1.92,-1.26,inactive
CG8757,DRSC24587,-5.46,-0.338,-0.434,inactive
